The results in this text go back to publication PMC13507078.

Holding throughout (assay): EMSA
(In general: In EMSA bound probe runs differently from free probe, usually more slowly.)

Data set [1] relates to Bd-PARP1 WT (Batrachochytrium dendrobatidis JEL423). The following applies: profile closely resembles Af-PARP1 WT; 5'-phosphate; EMSA: 50 mM HEPES pH 8, 100 mM NaCl, 10% glycerol, 10 mM DTT, 45 min at 4 °C, 7% native PAGE 0.5x TBE; recombinant protein; protein details: His; folded or branched DNA.
Data set [2] addresses T1, Af-PARP1 ΔBRCT (Aspergillus fumigatus) (UniProt B0Y3N8).
T1 sequence (looked up, limits assumed): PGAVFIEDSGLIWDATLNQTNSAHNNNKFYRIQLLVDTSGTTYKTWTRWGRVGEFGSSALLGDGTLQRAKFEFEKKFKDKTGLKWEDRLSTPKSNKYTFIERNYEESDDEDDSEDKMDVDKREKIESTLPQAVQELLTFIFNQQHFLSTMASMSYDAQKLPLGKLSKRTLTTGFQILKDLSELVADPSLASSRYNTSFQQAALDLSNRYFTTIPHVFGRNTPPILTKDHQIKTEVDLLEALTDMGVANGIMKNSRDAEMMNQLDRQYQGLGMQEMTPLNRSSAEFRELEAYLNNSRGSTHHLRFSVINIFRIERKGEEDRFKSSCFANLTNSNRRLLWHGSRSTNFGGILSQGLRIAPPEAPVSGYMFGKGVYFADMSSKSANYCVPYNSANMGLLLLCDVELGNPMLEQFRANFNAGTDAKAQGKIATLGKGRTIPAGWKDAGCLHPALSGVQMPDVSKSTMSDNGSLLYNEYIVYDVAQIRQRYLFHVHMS
As to conditions: EMSA: 50 mM HEPES pH 8, 100 mM NaCl, 10% glycerol, 10 mM DTT, 45 min at 4 °C, 7% native PAGE 0.5x TBE, recombinant protein.

In data set [3] the test system is Bd-PARP1 ΔBRCT (Batrachochytrium dendrobatidis JEL423). As to conditions: 5'-phosphate, EMSA: 50 mM HEPES pH 8, 100 mM NaCl, 10% glycerol, 10 mM DTT, 45 min at 4 °C, 7% native PAGE 0.5x TBE, recombinant protein, protein details: His, folded or branched DNA.
[4] abbreviates: 3'-phosphate, folded or branched ….
[5] abbreviates: 5'-phosphate, folded or branched ….

For at least one entry, the source does not settle the construct or the ends of the probe. For some of these results: Negatives hold for the conditions tested. At least one verdict was read from the data and is not stated in words by the source. For some of these results: Where a protein sequence is shown, tags need not be part of it. For some of these results: Weaker means in comparison with the reference protein, sequence or condition of that experiment.

Regarding “CGGTCGATCGTAAGATCGACCGGCGCTGGAGCTTGCTCCAGCGC [DNA-1 (5'P nick)]”, in data set [1], the binding result is reported as “binds”. For “CGGTCGATCGTAAGATCGACCGGCGCTGGAGCTTGCTCCAGCGC [DNA-11 (nick)]”, the binding result in data set [2] (clear shift only with DNA-1, folded or branched DNA) is “no binding”. As to “CGGTCGATCGTAAGATCGACCGGCGCTGGAGCTTGCTCCAGCGC [DNA-12 (3'P nick)]”, in data set [2] (clear shift only with DNA-1, 3'-phosphate, folded or branched …), the binding result is reported as “no binding”. Turning to “CGGTCGATCGTAAGATCGACCGTGCGCTGGAGCTTGCTCCAGCGC [DNA-2 (5'P gap)]”, the results for the binding result in data set [1] and in data set [3] (markedly reduced for gap structures) were “binds” and “binds more weakly”, respectively. “CGGTCGATCGTAAGATCGACCGTGCGCTGGAGCTTGCTCCAGCGC [DNA-3 (3'P gap)]”: the binding result in data set [2] (setting [4]) is recorded as “no binding”. Regarding “CGGTCGATCGTAAGATCGACCGTGCGCTGGAGCTTGCTCCAGCGC [DNA-13 (gap)]”, the binding result in data set [2] (folded or branched DNA) is recorded as “no binding”. On the same count and under the same terms, the value for “GCTAGGAAGTTCTTTTGAACTTCC [DNA-8 (5' overhang)]” was “no binding”. For “GCTAGGAAGTTCTTTTGAACTTCC [DNA-10 (3'P 5' overhang)]”, the binding result in data set [2] (setting [4]) was “no binding”. With GGAAGTTCTTTTGAACTTCC [DNA-4 (blunt)], the binding result in data set [2] (folded or branched DNA) was “no binding”. With “GGAAGTTCTTTTGAACTTCC [DNA-5 (5'P blunt)]”, the figures for the binding result in data set [2] (setting [5]) and in data set [3] (markedly reduced for blunt ends) were “no binding” and “binds more weakly”, respectively. Regarding “GGAAGTTCTTTTGAACTTCC [DNA-6 (3'P blunt)]”, the binding result in data set [2] (setting [4]) is “no binding”. In the case of “GGAAGTTCTTTTGAACTTCCTTGG [DNA-7 (3' overhang)]”, in data set [2] (folded or branched DNA), the binding result is reported as “no binding”. In the case of “GGAAGTTCTTTTGAACTTCCTTGG [DNA-9 (5'P 3' overhang)]”, the binding result in data set [2] (setting [5]) is recorded as “no binding”; in data set [3] (markedly reduced for overhangs), “binds more weakly”.
